Results deposited as PubChem BioAssay AID624099 (ICCB-Longwood, 2012)
In all, the deposit lists about 21,000 reagents; shown is a random part of them. 497 of all reagents (2.4%) count as active. 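Higher z means weaker E2 silencing; only reporter increases were scored, and knock-downs that hurt cell survival may mask genuine repressor factors.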 A number with no mark means an inactive call. Reagents against one gene are numbered here.

- Screen: 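Human genes that papillomavirus E2 requires to repress the HPV18 LCR promoter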 (primary screen)
- System: human C33A cervical carcinoma cells (HPV-negative) stably expressing BPV1 E2 and an HPV18 LCR luciferase reporter
- Knock-down reagent: siRNA pool against human genes, 40 nM
- Time to read-out: 72 h
- Measured: 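Per-well luciferase luminescence, z-scored on each plate against the plate mean and SD with control wells left out, then averaged across three replicate plates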
- Scale: mean z-score and z-score: higher = stronger reporter signal, weaker E2 silencing
- Active means: 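Hit if mean z-score reaches 2 and two or more of three replicate z-scores also reach 2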

Target gene	pool no.	mean z-score	z-score, replicate A	z-score, replicate B	z-score, replicate C
LHFPL2	1	0.08	0.12	0.05	0.08
LHFPL2	2	2.77 (active)	2.98	2.84	2.5
DNM1P46	1	0.6	0.33	0.5	0.97
CLEC18C	1	-0.49		-0.43	-0.54
TMEM247	1	-0.95	-0.59	-1.01	-1.26
APLP2	1	-0.61	-0.25	-0.62	-0.95
UFD1	1	0.59	0.7	0.55	0.52
CAND2	1	0.31	0.44	0.16	0.34
SCYL2	1	1.91	1.99	1.97	1.77
DAP	1	-0.06	-0.13	0.03	-0.1
TGM3	1	0.11	0.09	0.13	0.12
PLPP7	1	-1.01	-1.02	-0.83	-1.19
CAMSAP3	1	0.53	0.99	0.46	0.14
TSC22D4	1	0.33	0.37	0.09	0.53
ODF4	1	-1.12	-0.93	-0.9	-1.53
SH3PXD2B	1	0.27	0.95	0.54	-0.67
MKRN1	1	0.57	0.42	0.58	0.7
YIPF4	1	0.01	-0.18	0.14	0.08
BMPER	1	-0.76	-0.95	-0.5	-0.84
FLJ44896 (retired record)	1	0.3	0.52	0.19	0.2
LOC339209 (retired record)	1	0.68	0.53	0.16	1.35
ZNF335	1	0.96	0.29	1.23	1.36
MAP7D3	1	1.22	1.91	0.96	0.78
FRZB	1	-0.07	-0.09	-0.12	-0.01
TMEM222	1	0.35	0.68	0.22	0.15
MASP2	1	0.77	1.11	0.82	0.37
EIF1	1	0.63	0.6	0.69	0.61
CLPSL2	1	-0.86	-1.11	-0.89	-0.58
ACSBG2	1	-0.53	-0.68	-0.66	-0.24
SCARA5	1	-1.48	-1.55	-1.52	-1.38
LINC01951	1	0.55	0.34	0.8	0.5
ZNF626	1	1.52	1.71	1.75	1.11
LINC00908	1	-0.59	-0.41	-0.84	-0.53
OR2L3	1	-0.49	-0.52	-0.37	-0.58
ARHGAP33	1	-1.16	-1.01	-1.19	-1.29
ARPC5L	1	0.25	0.28	0	0.48
RNASE6	1	-0.3	-0.64	-0.1	-0.18
GCNT3	1	0.23	0.62	0.02	0.05
CMA1	1	-0.55	-0.5	-0.58	-0.59
TBCC	1	1.31	1.24	1.46	1.23
PTPRK	1	-0.45	-0.27	-0.53	-0.56
SAR1AP3	1	-0.81	-0.82	-0.93	-0.69
RBM7	1	1.12	0.84	1.24	1.29
CYP4F24P	1	-0.01	0.09	-0.09	-0.03
DDIAS	1	-0.17	0	-0.1	-0.41
C10orf53	1	-1.46		-1.4	-1.52
SLC51A	1	-0.29	-0.71	-0.52	0.37
ACLY	1	1.95	2.07	1.87	1.9
ANAPC16	1	0.72	0.58	0.79	0.79
NNMT	1	1.75	1.54	1.69	2.02
CHRNA4	1	-0.36	-0.37	-0.6	-0.11
LINC00934	1	0.83	0.76	0.98	0.75
CSMD2	1	-0.3	0.06	-0.55	-0.42
ANKH	1	3.13 (active)	3.21	3.29	2.88
PKDCC	1	-1.05	-0.83	-1.23	-1.11
PIK3CG	1	0.42	0.11	0.78	0.36
LOC285047 (retired record)	1	-0.32	0.17	-0.55	-0.58
BARX1	1	-0.15	-0.34	-0.35	0.24
LOC389129 (retired record)	1	-1.1	-0.82	-1.27	-1.2
CTNNAL1	1	-0.78	-0.7	-0.93	-0.7
PPP1R15B	1	1.15	1.26	1.18	1
AMER2	1	2.63 (active)	2.84	2.1	2.95
TRIP6	1	-0.22	-0.1	-0.42	-0.14
KREMEN2	1	-0.07	0.16	-0.05	-0.3
CDH13	1	0.29	0.44	0.48	-0.04
RPS15P9	1	0.81	1.16	0.55	0.72
AOC1	1	-0.66	-0.07	-0.97	-0.96
LACC1	1	0.03	0.44	0.15	-0.49
TMTC2	1	0.55	0.94	0.43	0.28
METTL27	1	0.16	0.06	0.43	0
CIB2	1	-0.22	0.07	-0.21	-0.53
TULP3	1	-0.25	-0.27	-0.2	-0.29
PGK1	1	-0.3	-0.62	0.38	-0.66

In a second layout: entries from further up
{"Target gene":"LINC00908","pool no.":1,"mean z-score":-0.59,"z-score, replicate A":-0.41,"z-score, replicate B":-0.84,"z-score, replicate C":-0.53}
{"Target gene":"OR2L3","pool no.":1,"mean z-score":-0.49,"z-score, replicate A":-0.52,"z-score, replicate B":-0.37,"z-score, replicate C":-0.58}
{"Target gene":"ARHGAP33","pool no.":1,"mean z-score":-1.16,"z-score, replicate A":-1.01,"z-score, replicate B":-1.19,"z-score, replicate C":-1.29}
{"Target gene":"ARPC5L","pool no.":1,"mean z-score":0.25,"z-score, replicate A":0.28,"z-score, replicate B":0,"z-score, replicate C":0.48}
{"Target gene":"RNASE6","pool no.":1,"mean z-score":-0.3,"z-score, replicate A":-0.64,"z-score, replicate B":-0.1,"z-score, replicate C":-0.18}
